The values that follow come from patent publication US12084473B2, “β-D-2′-deoxy-2′-α-fluoro-2′-β-C-substituted-2-modified-N6-substituted purine nucleotides for HCV treatment” (Atea Pharmaceuticals, Inc., priority 2015, dated 2024).

For the series, the system named is HCV genotype 1b luciferase reporter replicon. Type of series: cell-based. Conditions: TC50 over EC50. As to the method:
The plates were cultured for 24 hours prior to the addition of compounds. Six serial one half log dilutions of the test articles (high test concentration of 100.0 μM or high test concentration of 1.0 μM) and human interferon-alpha2b (high test 10.0 U/ml) were prepared in cell culture medium and added to the cultured cells in triplicate wells for each dilution. Six wells in the test plates received medium alone as an untreated control. Following 72 hours of culture in the presence of compound, one of the plates was used for the determination of cytotoxicity by staining with XTT and the other for antiviral efficacy by determination of luciferase reporter activity. Cytotoxicity and efficacy data were collected and imported into a customized Excel workbook for determination of the TC50 and EC50 values. […] The y-axis is the percent of virus control and the x-axis is the concentration of drug in μM. […] The y-axis is the percent of virus control and the x-axis is the concentration of drug in M.

Consider sofosbuvir [reference compound], for which the therapeutic index entry is given as “greater than 1,920”.

In the case of `CNc1nc(N)nc2c1ncn2[C@@H]1OC(CO[P@@](=O)(N[C@@H](C)C(=O)OC(C)C)Oc2ccccc2)[C@@H](O)[C@@]1(C)F` (stereo partly drawn) [Compound 5-2], the therapeutic index entry was “greater than 25,000”.

In the case of `CC(C)OC(=O)[C@H](C)N[P@](=O)(OCC1O[C@@H](n2cnc3c(N(C)C)nc(N)nc32)[C@](C)(F)[C@@H]1O)Oc1ccccc1` (stereo partly drawn) [Compound 25, isopropyl ((((S)-(2R,3R,4R,5R)-5-(2-amino-6-(dimethylamino)-9H-purin-9-yl)-4-fluoro-3-hydroxy-4-methyltetrahydrofuran-2-yl)methoxy)-phenoxy-phosphoryl)-L-alaninate], the therapeutic index entry is “greater than 25,000”.
